Reference: PMC10870823 (mBio, 2023)

Tests used:
[1] = target: SARS-CoV-2 Spike B.617.2 (Delta), lacking the final 21 amino acids, on rcVSV-S virions (SARS-CoV-2); assay: cell-based or functional assay
[2] = target: SARS-CoV-2 Spike B.135 (Beta), lacking the final 21 amino acids, on rcVSV-S virions (SARS-CoV-2); assay: cell-based or functional assay

B1: FG-10A3 (Family G clone 10A3) human anti-SARS-CoV-2 Spike RBD monoclonal antibody (antibody, V domains shown)
VH: QVQLVESGGGVVQPGRSLRLSCAASGFTFSSYGMNWVRQAPGKGLEWVAIIWYDGNNTYYVDSVKGRFTISRDNSKNTLYLQMNSLRAEDTAVYYCARKDGSKTYYGYYFDYWGQGTLVTVSS
VL: DIQMTQSPSSLSASVGDRVTITCRASQSIHSFLNWYQQKPGKPPNLLIYAASSLQSGLPSRFSGSGSGTDFTLTISSLQPEDFATYYCQQSYITPPTFGHGTKVEIK
notes: also called Family G (FG)-10A3
EC50 of neutralisation of rcVSV-S Delta infection of Vero-ACE2/TMPRSS2 cells [1]: 0.00931 µg/mL
EC50 of neutralisation of rcVSV-S Beta infection of Vero-ACE2/TMPRSS2 cells [2]: 0.011 µg/mL
